This passage reports LD50 results from patent publication US7745575B1 (Cellpep Pharma Inc., priority 2004, dated 2010).

A short description of this data set: toxicity in vivo, LD50 after intracerebroventricular injection. As to conditions: mouse, icv or intrathecal, 20 g C57/BL6 mice. The method, then:
Groups of six to eight mice per dose were injected with 5 μl peptide solution containing 0.1% (w/v) bovine serum albumin and 0.9% (w/v) NaCl. The LD50 values are set out in Table 5.

In the case of `CC[C@H](C)[C@@H]1NC(=O)[C@H](CCCCN)NC(=O)[C@@H](NC(=O)[C@H](CCCCN)NC(=O)[C@@H](NC(=O)[C@H](CC(N)=O)NC(=O)[C@@H](NC(=O)[C@@H](NC(=O)[C@@H](NC(=O)CN)C(C)C)[C@@H](C)CC)[C@@H](C)CC)C(C)C)CSSC[C@@H]2NC(=O)[C@H](CCCCN)NC(=O)CNC(=O)[C@H](Cc3ccccc3)NC(=O)[C@H](CCCNC(=N)N)NC(=O)[C@H](CCSC)NC(=O)CNC(=O)[C@H](C)NC(=O)[C@H](CCCCN)NC(=O)[C@H](CCCCN)NC(=O)[C@@H]3CSSC[C@@H](C(=O)N[C@H](C(=O)N4CCC[C@H]4C(=O)N[C@@H](CCCCN)C(=O)O)[C@@H](C)O)NC(=O)[C@H](Cc4c[nH]cn4)NC(=O)[C@H](CSSC[C@H](NC(=O)[C@H](CCC(N)=O)NC(=O)[C@H](CCCNC(=N)N)NC(=O)[C@H](CO)NC1=O)C(=O)N[C@@H](CC(C)C)C(=O)N[C@@H](CCC(=O)O)C(=O)N1CCC[C@H]1C(=O)N3)NC(=O)[C@H](CCCCN)NC(=O)CNC(=O)[C@H](CC(N)=O)NC(=O)[C@H](CCSC)NC2=O` [OsK1, reference compound], the LD50 was 2 µg/kg.
